These results are taken from patent US20100256070.

The target in data set [1] is eEF2 from wild type CHO cells (CHO-K1), P09445.
The target of data set [2] is mutant eEF2 from the DT-resistant CHO line Re1.22C, P09445.
Data set [3] addresses human eukaryotic elongation factor 2 (eEF2) from 293T cell lysate, P13639.

B1: purified ADPRT domain of VCE (protein)
chain: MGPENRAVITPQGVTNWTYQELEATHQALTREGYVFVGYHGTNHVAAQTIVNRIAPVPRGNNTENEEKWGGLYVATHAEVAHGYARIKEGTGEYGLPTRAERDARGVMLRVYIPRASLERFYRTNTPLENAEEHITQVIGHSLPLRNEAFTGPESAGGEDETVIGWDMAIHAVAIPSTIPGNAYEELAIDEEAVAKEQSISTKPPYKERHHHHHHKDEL
For B1, the “ADP-ribosylation with biotin-NAD (immunoblot)” value in data set [1] is “VCE modified eEF2 from wild type CHO cells and 293T cells”; in data set [2], “VCE failed to modified eEF2 from Re1.22C”; in data set [3], “VCE modified eEF2 from wild type CHO cells and 293T cells”.
